Assay results taken from ChEMBL document CHEMBL4385601, “Anti-Zika Activity of a Library of Synthetic Carbohydrate Receptors” (J Med Chem, 2019).

tested on: Zika virus; assay: Antiviral activity against Zika virus harboring subgenomic GFP replicon infected in African green monkey Vero cells assessed as reduction in viral infection preincubated for 30 mins followed by viral infection and measured after 72 hrs

Row | Structure (SMILES) | IC50
1 | [N-]=[N+]=NCc1cc(CN=[N+]=[N-])cc(-c2cc(CN=[N+]=[N-])cc(CN=[N+]=[N-])c2)c1 | > 100 µM
2 | [N-]=[N+]=NCc1cc(CN=[N+]=[N-])cc(-c2cc(CN=[N+]=[N-])cc(Cn3cc(COCCOCc4cn(Cc5cc(CN=[N+]=[N-])cc(-c6cc(CN=[N+]=[N-])cc(CN=[N+]=[N-])c6)c5)nn4)nn3)c2)c1 | > 100 µM
3 | [N-]=[N+]=NCc1cc(CN=[N+]=[N-])cc(-c2cc(CN=[N+]=[N-])cc(Cn3cc(COCCOCCOCCOCc4cn(Cc5cc(CN=[N+]=[N-])cc(-c6cc(CN=[N+]=[N-])cc(CN=[N+]=[N-])c6)c5)nn4)nn3)c2)c1 | > 100 µM
4 | [N-]=[N+]=NCc1cc(CN=[N+]=[N-])cc(-c2cc(CN=[N+]=[N-])cc(Cn3cc(COCCOCCOCCOCCOCCOCc4cn(Cc5cc(CN=[N+]=[N-])cc(-c6cc(CN=[N+]=[N-])cc(CN=[N+]=[N-])c6)c5)nn4)nn3)c2)c1 | > 100 µM
